This data set concerns CHO-7 cells. The data set is classed as cell-based, hamster.

The values below come from PMC4718804 (eLife, 2015).

Structures are written as SMILES.

For the compound `CCN(CC)CCOC1CCC2(C)C(=CCC3C4CCC(=O)C4(C)CCC32)C1` (stereo not drawn) [U18666A, 3-beta-[2-(diethylamino)ethoxy]androst-5-en-17-one, reference compound], the “[14C]triglyceride content” value was determined as 117 nmol/hr/ mg protein and the “content of [14C]triglycerides” value is given as 57 nmol/hr/mg protein.
For `C#CCOc1ccc(C(=O)c2ccc(C(=O)OCCN(CC)CCOC3CCC4(C)C(=CCC5C6CCC(=O)C6(C)CCC54)C3)cc2)cc1` (stereo not shown) [U-X], the “content of [14C]triglycerides” value was 55 nmol/hr/mg protein.
Same read-out and setting: with `CCN(CC)CCCC(C)Nc1ccnc2cc(Cl)ccc12` (stereo not shown) [chloroquine, reference compound] the figure was 81 nmol/hr/mg protein.
